Anti-infective test results gathered from many reports (values: NIAID ChemDB through PubChem).

Shared fields: growth or infection tests; organism: Herpes simplex virus 2

Neighbouring rows are from separate reports.

{"SMILES": "CCOC(=O)c1c(Br)c(-c2ccccc2)n(COCCO)c1-c1ccccc1", "cell line": "VERO", "method": "plaque count", "measure": "EC50", "value": ">64 µM"}
{"SMILES": "Nc1ncnc2c1ncn2[C@@H]1O[C@H](CO)[C@@H](O)[C@H]1OP(=O)(O)OC[C@H]1O[C@@H](n2cnc3c(N)ncnc32)[C@H](OP(=O)(O)OC[C@H]2O[C@@H](n3cc(/C=C/Br)c(=O)[nH]c3=O)C[C@@H]2O)[C@@H]1O", "cell line": "PRK", "strain or isolate": "196", "method": "cytopathic effect", "measure": "EC50", "value": ">100 µg/mL"}
{"SMILES": "Nc1nc(=O)n([C@@H]2O[C@H](CO)[C@@H](O)[C@@H]2F)cc1I", "cell line": "VERO", "strain or isolate": "G-FIAC-C1", "method": "plaque count", "measure": "EC50", "value": "21 µM"}
{"SMILES": "C=Cc1cc([C@H]2C[C@H](O)[C@@H](CO)O2)c(F)cc1F", "cell line": "E6SM", "strain or isolate": "LYONS", "method": "cytopathic effect", "measure": "EC50", "value": ">400 µg/mL"}
{"SMILES": "Nc1nc(=O)n([C@@H]2O[C@H](CO)[C@@H](O)[C@@H]2F)cc1I", "cell line": "HELF", "strain or isolate": "HG-52", "method": "plaque count", "measure": "EC50", "value": "0.023 µg/mL"}
{"SMILES": "CCCCCCc1cn([C@@H]2OC3COP(=O)(O)OC3[C@H]2O)c(=O)nc1N", "strain or isolate": "196", "measure": "EC50", "value": ">400 µg/mL"}
{"SMILES": "O=C(O)CP(=O)(O)O", "cell line": "MEF", "strain or isolate": "E-326", "method": "plaque count", "measure": "EC50", "value": "12.9 µg/mL"}
{"SMILES": "Nc1nc2c(ncn2COCCO)c(=O)[nH]1", "cell line": "HFF", "strain or isolate": "16053 8702 (acyclovir-susceptible)", "method": "cytopathic effect", "measure": "EC50", "value": "1 µg/mL"}
{"SMILES": "O=c1[nH]c(=O)n([C@@H]2O[C@H](CO)[C@@H](O)[C@@H]2F)cc1I", "cell line": "VERO", "strain or isolate": "G-FIAC-C1", "method": "plaque count", "measure": "EC50", "value": "9 µM"}
{"SMILES": "CCCCCCCC/C=C/CCCCCCCC(=O)OCC(CO)OCn1cnc2c(=O)[nH]c(N)nc21", "cell line": "HEL", "strain or isolate": "G", "method": "cytopathic effect", "measure": "EC50", "value": "0.0012 µM"}
{"SMILES": "Nc1nc2c(ncn2COCCO)c(=O)[nH]1", "cell line": "FS-71", "strain or isolate": "MS", "method": "cytopathic effect", "measure": "EC50", "value": "0.31 µg/mL"}
{"SMILES": "CCCCCCCC/C=C\\CCCCCCCOCCCOP1(=O)CO[C@@H](Cn2ccc(N)nc2=O)CO1", "cell line": "HFF", "strain or isolate": "SR", "method": "plaque count", "measure": "EC50", "value": ">1 µM"}
{"SMILES": "O=c1[nH]c(=O)n([C@H]2C[C@H](O)[C@@H](CO)O2)cc1I", "cell line": "HELF", "strain or isolate": "UW-268", "method": "plaque count", "measure": "EC50", "value": "6.1 µg/mL"}
{"SMILES": "Cc1cn([C@@H]2OC3COP(=O)(O)OC3[C@H]2O)c(=O)nc1N", "strain or isolate": "196", "measure": "EC50", "value": ">400 µg/mL"}
{"SMILES": "Nc1ccn([C@H]2O[C@@H](CO)[C@H](O)[C@H]2F)c(=O)n1", "cell line": "VERO", "strain or isolate": "G-FIAU-C1", "method": "plaque count", "measure": "EC50", "value": "2.8 µM"}
{"SMILES": "Nc1nc2c(nc(Cl)n2COCCO)c(=O)[nH]1", "cell line": "PRK", "method": "cytopathic effect", "measure": "EC50", "value": ">400 µg/mL"}
{"SMILES": "O=c1ccn([C@@H]2O[C@H](CO)[C@@H](O)[C@@H]2F)c(=O)[nH]1", "cell line": "VERO", "strain or isolate": "G-FIAC-C1", "method": "plaque count", "measure": "EC50", "value": "3.5 µM"}
{"SMILES": "Nc1nc2c(ncn2COCCO)c(=O)[nH]1", "cell line": "VERO", "strain or isolate": "196", "method": "plaque count", "measure": "EC90", "value": "1.1 µM"}
{"SMILES": "CCCCCCCC/C=C\\CCCCCCCOCCOP1(=O)CO[C@@H](Cn2ccc(N)nc2=O)CO1", "cell line": "HFF", "strain or isolate": "MS", "method": "plaque count", "measure": "EC50", "value": "0.01 µM"}
{"SMILES": "Nc1nc2c(ncn2C/C=C\\CO)c(=O)[nH]1", "cell line": "SIRC", "strain or isolate": "91075", "method": "plaque count", "measure": "EC50", "value": "3.6 µM"}
{"SMILES": "Cc1cn([C@@H]2O[C@H](CO)[C@@H](O)[C@@H]2F)c(=O)[nH]c1=O", "cell line": "VERO", "strain or isolate": "G-FIAU-C1", "method": "plaque count", "measure": "EC50", "value": "9.2 µM"}
{"SMILES": "CCCCCCCC/C=C\\CCCCCCCCOCCOP(=O)(O)CO[C@H](CO)Cn1ccc(N)nc1=O", "cell line": "HFF", "strain or isolate": "MS", "method": "plaque count", "measure": "EC50", "value": "0.005 µM"}
{"SMILES": "CCCCCCCCc1cn([C@@H]2O[C@H](COP(=O)(O)O)[C@@H](O)[C@H]2O)c(=O)nc1N", "strain or isolate": "196", "measure": "EC50", "value": ">400 µg/mL"}
{"SMILES": "[N-]=[N+]=N[C@@H]1[C@@H](OP(=O)(O)OC[C@H]2O[C@@H](n3cnc4c(N)ncnc43)[C@H](OP(=O)(O)OCCOCn3cnc4c(=O)[nH]c(N)nc43)[C@H]2N=[N+]=[N-])[C@H](n2cnc3c(N)ncnc32)O[C@@H]1CO", "cell line": "PRK", "strain or isolate": "LYONS", "method": "cytopathic effect", "measure": "EC50", "value": "2 µg/mL"}
{"SMILES": "Nc1c(-c2ccccc2)c(-c2ccccc2)n(COCCO)c1-c1ccccc1", "cell line": "VERO", "method": "plaque count", "measure": "EC50", "value": ">42 µM"}
{"SMILES": "Cc1cn([C@@H]2O[C@H](CO)[C@H]2CO)c(=O)[nH]c1=O", "cell line": "HFF", "strain or isolate": "MS", "method": "plaque count", "measure": "EC50", "value": "5.7 µg/mL"}
{"SMILES": "Nc1nc2c(ncn2COCCO)c(=O)[nH]1", "cell line": "HELF", "strain or isolate": "HG-52", "method": "plaque count", "measure": "EC50", "value": "0.03 µg/mL"}
{"SMILES": "CC(=O)OCCOCn1c(-c2ccccc2)c(Br)c(Br)c1-c1ccccc1", "cell line": "VERO", "method": "plaque count", "measure": "EC50", "value": ">23 µM"}
{"SMILES": "Nc1ccn(C[C@@H](CO)OCP(=O)(O)O)c(=O)n1", "cell line": "HEL", "strain or isolate": "HS-44 (TK-)", "method": "cytopathic effect", "measure": "EC50", "value": "0.97 µM"}
{"SMILES": "O=C(NCc1ccc(Cl)cc1)c1cn2c3c(cc(CN4CCOCC4)cc3c1=O)OC(c1cccnc1)C2", "cell line": "HFF", "strain or isolate": "AG-3 (ACV-resistant)", "method": "plaque count", "measure": "EC50", "value": "8.4 µM"}
{"SMILES": "OC[C@H]1O[C@@H](c2cc(/C=C/I)c(F)cc2F)C[C@@H]1O", "cell line": "E6SM", "strain or isolate": "G", "method": "cytopathic effect", "measure": "EC50", "value": ">400 µg/mL"}
{"SMILES": "Nc1nc2c(ncn2CC[C@H](O)CO)c(=O)[nH]1", "cell line": "BHK", "strain or isolate": "91075", "method": "plaque count", "measure": "EC50", "value": "70 µM"}
{"SMILES": "CC(=O)OCCOCn1c(-c2ccccc2)c(Br)c(-c2ccccc2)c1-c1ccccc1", "cell line": "VERO", "method": "plaque count", "measure": "EC50", "value": ">16 µM"}
{"SMILES": "CCCCCCCCCCCCCCCCCOC[C@H](COP1(=O)CO[C@@H](Cn2ccc(N)nc2=O)CO1)OCc1ccccc1", "cell line": "HFF", "strain or isolate": "G", "method": "plaque count", "measure": "EC50", "value": ">1 µM"}
{"SMILES": "[N-]=[N+]=NC(CBr)c1cc([C@H]2C[C@H](O)[C@@H](CO)O2)c(F)cc1F", "cell line": "E6SM", "strain or isolate": "LYONS", "method": "cytopathic effect", "measure": "EC50", "value": ">400 µg/mL"}
{"SMILES": "Nc1nc(=O)ccn1COCCO", "cell line": "PRK", "method": "cytopathic effect", "measure": "EC50", "value": ">400 µg/mL"}
{"SMILES": "Cc1cn([C@@H]2O[C@H](CO)[C@@H](O)[C@@H]2O)c(=O)[nH]c1=O", "cell line": "HELF", "strain or isolate": "MS", "method": "plaque count", "measure": "EC50", "value": "0.22 µg/mL"}
{"SMILES": "Cn1cc(C(=O)NCc2ccc(Cl)cc2)c(=O)c2cc(CN3CCOCC3)ccc21", "cell line": "HFF", "strain or isolate": "X-79 (WILD TYPE)", "method": "plaque count", "measure": "EC50", "value": "4.7 µM"}
{"SMILES": "CCCCCCCCCCCCOCCCOP(=O)(O)CO[C@H](CO)Cn1ccc(N)nc1=O", "cell line": "HFF", "strain or isolate": "MS", "method": "plaque count", "measure": "EC50", "value": "0.3 µM"}
{"SMILES": "O=c1[nH]c(=O)n([C@H]2C[C@H](O)[C@@H](COP(=O)(O)O)O2)cc1/C=C/c1ccccc1", "cell line": "PRK", "strain or isolate": "LYONS", "method": "cytopathic effect", "measure": "EC50", "value": "70 µg/mL"}
{"SMILES": "CC(C)c1cn([C@@H]2O[C@H](COP(=O)(O)O)[C@@H](O)[C@H]2O)c(=O)nc1N", "strain or isolate": "G", "measure": "EC50", "value": ">400 µg/mL"}
{"SMILES": "Nc1nc2c(ncn2CCCCO)c(=O)[nH]1", "cell line": "VERO", "strain or isolate": "91075 (acyclovir-resistant)", "method": "plaque count", "measure": "EC50", "value": ">250 µM"}
{"SMILES": "CCCCc1cn([C@@H]2O[C@H](COP(=O)(O)O)[C@@H](O)[C@H]2O)c(=O)nc1N", "strain or isolate": "196", "measure": "EC50", "value": ">400 µg/mL"}
{"SMILES": "O=c1[nH]c(=O)n([C@H]2C[C@H](O)[C@@H](COP(=O)(O)O)O2)cc1CCc1ccccc1", "cell line": "PRK", "strain or isolate": "196", "method": "cytopathic effect", "measure": "EC50", "value": "10 µg/mL"}
{"SMILES": "CC(=O)OCCOCn1cnc2c(Cl)ncnc21", "cell line": "PRK", "method": "cytopathic effect", "measure": "EC50", "value": "70 µg/mL"}
{"SMILES": "Nc1nc2c(ncn2CC[C@@H](O)CO)c(=O)[nH]1", "cell line": "VERO", "strain or isolate": "91075", "method": "plaque count", "measure": "EC50", "value": "4 µM"}
{"SMILES": "Nc1nc2c(ncn2COCCO)c(=O)[nH]1", "cell line": "HFF", "strain or isolate": "MS", "method": "plaque count", "measure": "EC50", "value": "0.8 µg/mL"}
{"SMILES": "CC(=O)OCCOCn1cnc2c(Cl)nc(Cl)nc21", "cell line": "PRK", "method": "cytopathic effect", "measure": "EC50", "value": ">10 µg/mL"}
{"SMILES": "CCCCCCCC/C=C\\CCCCCCCOCCCOP(=O)(O)CO[C@H](CO)Cn1ccc(N)nc1=O", "cell line": "HFF", "strain or isolate": "SR", "method": "plaque count", "measure": "EC50", "value": "0.1 µM"}
{"SMILES": "CCCCCCCC/C=C/CCCCCCCC(=O)O", "cell line": "HEL", "strain or isolate": "HS-44 (TK-)", "method": "cytopathic effect", "measure": "EC50", "value": ">100 µM"}

3 of the rows above, restated:

SMILES	cell line	strain or isolate	method	measure	value
CC(=O)OCCOCn1cnc2c(Cl)nc(Cl)nc21	PRK		cytopathic effect	EC50	>10 µg/mL
Cn1cc(C(=O)NCc2ccc(Cl)cc2)c(=O)c2cc(CN3CCOCC3)ccc21	HFF	X-79 (WILD TYPE)	plaque count	EC50	4.7 µM
Nc1nc(=O)n([C@@H]2O[C@H](CO)[C@@H](O)[C@@H]2F)cc1I	VERO	G-FIAC-C1	plaque count	EC50	21 µM

Blank or dashed fields: not listed here. ECn: concentration that inhibits the pathogen or its effect by n%.